Results of unrelated studies side by side (data: NIAID ChemDB).

Shared fields: tests in culture; organism: HIV-1

An empty or dashed field is not shown. Rows are shuffled and stem from different studies. ECn: concentration that inhibits the pathogen or its effect by n%.

structure,strain or isolate,read by,mutations,cells,endpoint,value
O=c1[nH]cnc2c1ncn2[C@H]1CC[C@@H](CO)O1,,p24,RT-T69G,MT-2,EC50,2.564 µM
C=C(C)OC(=O)N1c2cc(Cl)ccc2NC(=S)C1(C)C,A1(RT-G190E),p24,RT-G190E,H9,EC50,>10 µg/mL
CC(C)=CCN1Cc2cc(Cl)cc3[nH]c(=S)n(c23)C[C@@H]1C,RTMC,plaque count,RT-D67N K70R T215Y K219Q,HT4 + HT4 LacZ-1,EC50,0.16 µM
N#CC[C@H](C1CCCC1)n1cc(-c2ncnc3[nH]ccc23)cn1,,p24 / ELISA,K65R,Primary T lymphocytes,EC90,8.5 µM
Cc1cc(S(N)(=O)=O)ccc1NC(=O)COc1ccc(Cl)cc1C(=O)c1cc(C#N)cc(C(=O)N2CCC2)c1,,,K103N,HeLa,EC50,0.14 µM
CC(=O)N1CCC(C(=O)N(CCCN2CCC(Cc3ccc(C(N)=O)cc3)CC2)c2ccc(C)c(Cl)c2)CC1,R5 subtype B_1 recombinant,luciferase,,U87 (CD4+ CCR5+) + U87,EC50,0.01 µM
CC(C)(C)NC(=O)[C@@H]1C[C@@H]2CCCC[C@@H]2CN1C[C@@H](O)[C@H](Cc1ccccc1)NC(=O)[C@H](CC(N)=O)NC(=O)c1ccc2ccccc2n1,Clinical isolate,p24,PR-L10R N37D M46I I62V L63P A71V G73S V77I V82T L90M I93L,PBMC,EC50,0.042 µM
COC(=O)N[C@H](C(=O)N[C@@H](Cc1ccccc1)[C@@H](O)CN(Cc1ccc(-c2ccccn2)cc1)NC(=O)[C@@H](NC(=O)OC)C(C)(C)C)C(C)(C)C,NL4-3,p24 / luminescence,L10I I54V K20R L24I V32I L33F M36I M46I I54M L63P K70Q V82I I84V L89M,MT-4,EC50,>1 µM
Cc1cn([C@H]2C[C@H](N=[N+]=[N-])[C@@H](CO)O2)c(=O)[nH]c1=O,CLADE D,cytopathic effect / XTT,,PBMC,EC50,0.001 µM
CCc1c(CC23CC4CC(CC(C4)C2)C3)nc(SCC(=O)Nc2ccc(C#N)cc2)[nH]c1=O,IIIB,MTT / absorbance,,MT-4,EC50,0.82 µM
Fc1cccc(F)c1CCNC(=S)Nc1ccc(Cl)cn1,IIIB,cytopathic effect,,MT-4,EC50,0.002 µM
Cc1cn([C@H]2C[C@H](N=[N+]=[N-])[C@@H](CO)O2)c(=O)[nH]c1=O,D79,p24 / ELISA,,Macrophage + Monocytes/macrophages,EC50,0.027 µM
CNc1ccc(C)cc1S(=O)(=O)c1ccccc1[N+](=O)[O-],IIIB,XTT,,CEM + CEM-SS,EC50,0.4 µM
Cc1ccnc2c1NC(=O)c1cccnc1N2C1CC1,NL4-3,cytopathic effect / XTT,RT-K101E,CEM + CEM-SS,EC50,0.3 µM
Nc1nc(=O)n([C@@H]2CO[C@H](CO)S2)cc1F,4246,RT activity,,CBMC,EC50,0.4 µM
Cc1cn([C@H]2C[C@H](N=[N+]=[N-])[C@@H](CO)O2)c(=O)[nH]c1=O,NL4-3,cytopathic effect / XTT,RT-V179D,CEM + CEM-SS,EC50,0.005 µM
Nc1ccn([C@H]2CC[C@@H](CO)O2)c(=O)n1,263)(ddC,p24,,MT-4,EC50,4.8 µM
Nc1nc(NC2CC2)c2ncn([C@H]3C=C[C@@H](CO)C3)c2n1,,p24,RT-K103N,MT-2,EC50,0.032 µM
Cc1cc(OC[C@H]2CNCCO2)ccc1NC(=O)COc1ccc(Cl)cc1C(=O)c1cc(C#N)cc(OC(F)F)c1,,,Y181C,HeLa,EC50,0.0007 µM
Cc1cn([C@@H]2O[C@H](CO[Si](C)(C)C(C)(C)C)C3(OS(=O)(=O)C=C3N)[C@H]2O[Si](C)(C)C(C)(C)C)c(=O)n(C)c1=O,IIIB-BHAP)(0.1)(RT-L100I,syncytia,RT-L100I,CEM,EC50,0.05 µg/mL
Nc1ccn([C@@H]2CO[C@H](CO)S2)c(=O)n1,RF,p24,RT-V106I Y188C,C8166,EC50,2.2 µM
CCc1cc(NCc2nc3c(Cl)ccc(Cl)c3o2)c(=O)[nH]c1C,IIIB,p24,,MT-4,EC50,<0.11 µM
Nc1ccn([C@H]2CC[C@@H](CO)O2)c(=O)n1,1241 (AZT-resistant RT-K70R),syncytia,RT-K70R,MT-4,EC50,0.038 µM
CC(C)CN(C[C@@H](O)[C@H](Cc1ccccc1)NC(=O)O[C@H]1CCOC1)S(=O)(=O)c1ccc(N)cc1,Clinical isolate,p24,PR-L10I I15V K20R M36I M46L I54V K55R I62V L63P K70Q V82A L89M,PBMC,EC50,0.28 µM
Cc1ccnc2c1NC(=O)c1cccnc1N2C1CC1,HXB2,p24,RT-M41L L74V V106A T215Y,C8166,EC50,0.9 µM
Cc1cc(C)cc([C@]23SCCN2C(=O)c2ccccc23)c1,IIIB,MTT,,MT-2,EC50,0.055 µM
CCCN(C)C(=O)Oc1nsnc1-c1c(Cl)ccc(N)c1Cl,IIIB,MTT,,MT-4,EC50,0.042 µM
Nc1nc2c(ncn2[C@H]2C=C[C@@H](CO)C2)c(=O)[nH]1,IIIB,cytopathic effect / MTT,,MT-2,EC50,0.71 µM
Cc1cc(S(N)(=O)=O)ccc1NC(=O)COc1ccc(Cl)cc1C(=O)c1cc(C#N)cc(CO)c1,,,Y181C,HeLa,EC50,0.0064 µM
Cc1cn([C@H]2C[C@H](N=[N+]=[N-])[C@@H](CO)O2)c(=O)[nH]c1=O,B9 (RT L100I V106A G190A),p24,RT-L100I V106A G190A,H9,EC50,0.03 µg/mL
Cc1cc(S(N)(=O)=O)ccc1NC(=O)COc1ccc(Cl)cc1C(=O)c1cc(C#N)cc(OCF)c1,,,WTRVA,HeLa,EC50,0.0007 µM
Cc1c(CC23CC4CC(CC(C4)C2)C3)nc(SCC(=O)Nc2ccccc2)[nH]c1=O,IIIB,MTT / absorbance,,MT-4,EC50,>295 µM
Cc1cn([C@H]2C[C@H](N=[N+]=[N-])[C@@H](CO)O2)c(=O)[nH]c1=O,4246,RT activity,,CBMC,EC50,0.008 µM
CCN[C@H]1CO[C@@H]2OCC[C@H](OC(=O)N[C@@H](Cc3cccc(OC)c3)[C@H](O)CN(CC(C)C)S(=O)(=O)c3ccc4nc(NC(C)C)sc4c3)[C@@H]21,NL4-3,p24 / luminescence,L10I I15V K20R L24I V32I M36I M46I L63P K70Q V82A I84V L89M,MT-4,EC50,0.016 µM
O=c1[nH]cnc2c1ncn2[C@H]1CC[C@@H](CO)O1,RF,cytopathic effect,,MT-4,EC50,8.5 µM
O=c1[nH]cnc2c1ncn2[C@H]1CC[C@@H](CO)O1,IIIB-Nevirapine(0.1)(RT-Y181C),syncytia,RT-Y181C,CEM,EC50,7.5 µM
Cc1occc1C(=S)Nc1ccc(Cl)c(/C=N/OC(C)(C)C)c1,IIIB,syncytia,RT-V106A,CEM,EC50,0.16 ± 0.06 µM
CCc1c(CC23CC4CC(CC(C4)C2)C3)nc(SCC(=O)Nc2ccc(C)cc2[N+](=O)[O-])[nH]c1=O,IIIB,MTT / absorbance,,MT-4,EC50,1.25 µM
CC(=O)Nc1cccc2c1nc(-c1c(F)cccc1F)n2Cc1c(F)cccc1F,,cytopathic effect / MTT,RT-K103N,MT-4,EC50,>20 µM
CC(C)=CCOc1cc(NC(=S)c2ccsc2C)ccc1Cl,IIIB,cytopathic effect,RT-V179D,CEM,EC50,0.012 µg/mL
Nc1nc(=O)n([C@@H]2CS[C@H](CO)O2)cc1F,Site-directed mutant,cytopathic effect / XTT,RT-K65R Y115F M184V,MT-2,EC50,>161 µM
CCc1c(CC23CC4CC(CC(C4)C2)C3)nc(SCC(=O)c2ccccc2)[nH]c1=O,IIIB,MTT / absorbance,,MT-4,EC50,0.19 µM
CC(C)=CCN1Cc2cc(Cl)cc3[nH]c(=S)n(c23)C[C@@H]1C,IIIB-Pyridinone(0.1)(RT-V179N,syncytia,RT-V179N,CEM,EC50,1.1 µg/mL
Cc1cn([C@@H]2O[C@H](CO[Si](C)(C)C(C)(C)C)C3(OS(=O)(=O)C=C3N)[C@H]2O[Si](C)(C)C(C)(C)C)c(=O)n(C)c1=O,IIIB,syncytia,RT-E138K,CEM,EC50,>20 µM
Nc1ccn([C@H]2CC[C@@H](CO)O2)c(=O)n1,HXB2,plaque count,,CD4+HELA + HeLa,EC50,0.07 ± 0.04 µM
CC(C)=CCN1Cc2cc(Cl)cc3[nH]c(=S)n(c23)C[C@@H]1C,IIIB,cytopathic effect / XTT,,MT-4,EC90,0.65 µM
CCN[C@H]1CO[C@@H]2OCC[C@H](OC(=O)N[C@@H](Cc3ccccc3)[C@H](O)CN(CC(C)C)S(=O)(=O)c3ccc4nc(NC5CC5)sc4c3)[C@@H]21,NL4-3,p24 / luminescence,L10I M46L I54V V82A,MT-4,EC50,0.0035 µM
CC(C)Nc1cccnc1N1CCN(C(=O)c2cc3cc(NS(C)(=O)=O)ccc3[nH]2)CC1,IIIB,cytopathic effect,,CEM,EC50,0.006 µg/mL
Cc1cn([C@H]2C[C@H](N=[N+]=[N-])[C@@H](CO)O2)c(=O)[nH]c1=O,AZT-resistant,p24,,PBL,EC50,1.1 µM
O=c1[nH]cnc2c1ncn2C1CC[C@@H](CO)O1,,p24 / ELISA,L74V,Primary T lymphocytes,EC50,13.2 µM
COC(=O)c1cccc2c1nc(-c1c(F)cccc1F)n2Cc1c(F)cccc1F,,cytopathic effect / MTT,RT-Y188H,MT-4,EC50,0.26 µM
Cc1cn([C@H]2C=C[C@@H](CO)O2)c(=O)[nH]c1=O,,p24 / ELISA,4xAZT,Primary T lymphocytes,EC50,27.8 µM
C[C@H](Cn1cnc2c(N)ncnc21)OCP(=O)(O)O,Site-directed mutant,cytopathic effect / XTT,RT-K65R Y115F M184V,MT-2,EC50,16.2 µM
CC(C)CN(C[C@@H](O)[C@H](Cc1ccccc1)NC(=O)O[C@H]1CCO[C@H]2OCC[C@H]21)S(=O)(=O)c1ccc2nc(NC3CC3)sc2c1,NL4-3,p24 / luminescence,L10I N37D G48V I54V L63P G73C I84V L90M,MT-4,EC50,0.046 µM
COC(=O)[C@H](C)NP(=O)(OC[C@@H]1CC[C@H](n2cnc3c(N)ncnc32)O1)Oc1ccccc1,IIIB,syncytia,,C8166,EC50,0.04 µM
Nc1nc(=O)n([C@H]2CO[C@@H](CO)S2)cc1F,HXB2D,RT activity,,MT-4,EC50,3 µM
Nc1nc(NC2CC2)c2ncn([C@H]3C=C[C@@H](CO)O3)c2n1,BRU PITT.(RT-L74V),cytopathic effect / MTT,RT-L74V,PBMC,EC50,9.6 µM
COC(=O)Nc1cc(C#N)cc(C(=O)c2cc(Cl)ccc2OCC(=O)Nc2ccc(S(N)(=O)=O)cc2C)c1,,,V106A,HeLa,EC50,0.04 µM
CCc1cccc2c1nc(-c1c(F)cccc1F)n2Cc1c(F)cccc1F,NL4-3,cytopathic effect / MTT,,MT-4,EC50,0.5 µM
Cc1cn([C@H]2C[C@H](N=[N+]=[N-])[C@@H](CO)O2)c(=O)[nH]c1=O,IIIB-TIBO(0.1),syncytia,,CEM,EC50,0.008 µM
Cc1cc(S(N)(=O)=O)ccc1NC(=O)COc1ccc(Cl)cc1C(=O)c1cc(C#N)cc(C(=O)N2CCOCC2)c1,,,K103N,HeLa,EC50,0.43 µM
Cc1c(CC23CC4CC(CC(C4)C2)C3)nc(SCC(=O)Nc2ccc(S(N)(=O)=O)cc2)[nH]c1=O,RES056,MTT / absorbance,,MT-4,EC50,>4.99 µM
O=c1[nH]cnc2c1ncn2[C@H]1CC[C@@H](CO)O1,HXB2,plaque count,,CD4+HELA + HeLa,EC50,2 µM
Cc1ccc(NC(=S)NCCc2ccccc2)nc1,IIIB,cytopathic effect,,MT-4,EC50,0.17 µM
Cc1c(O)cccc1C(=O)N[C@@H](CSc1ccccc1)[C@H](O)CN1C[C@H]2CCCC[C@H]2C[C@H]1C(=O)NC(C)(C)C,Clinical isolate,p24,PR-L10I I15V E35D N37E K45R I54V L63P A71V V82T L90M I93L C95F,PBMC,EC50,>1 µM
Fc1cccc(F)c1Cn1c(-c2c(F)cccc2F)nc2c(Br)cccc21,,cytopathic effect / MTT,RT-V108I,MT-4,EC50,3.2 µM
CCc1c(CC23CC4CC(CC(C4)C2)C3)nc(SCC(=O)Nc2ccc(S(N)(=O)=O)cc2)[nH]c1=O,IIIB,MTT / absorbance,,MT-4,EC50,0.12 µM
COc1ccc(S(=O)(=O)N(CC(C)C)C[C@@H](O)[C@H](Cc2ccccc2)NC(=O)O[C@H]2CCO[C@H]3OCC[C@H]32)cc1,NL4-3,p24 / luminescence,,MT-4,EC50,0.0044 µM
CC(C)c1nc(CN(C)C(=O)N[C@H](C(=O)N[C@@H](Cc2ccccc2)C[C@H](O)[C@H](Cc2ccccc2)NC(=O)OCc2cncs2)C(C)C)cs1,Clinical isolate,p24,PR-L10I K43T M46L I54L L63P A71T V82A L90M Q92K,PBMC,EC50,>1 µM
CNc1ccc(Cl)cc1S(=O)(=O)c1ccccc1[N+](=O)[O-],IIIB,XTT,,CEM + CEM-SS,EC50,0.1 µM
CNc1cccc2c1nc(-c1c(F)cccc1F)n2Cc1c(F)cccc1F,,cytopathic effect / MTT,RT-Y181C,MT-4,EC50,0.26 µM
COC(=O)c1cc(C#N)cc(C(=O)c2cc(Cl)ccc2OCC(=O)Nc2ccc(S(N)(=O)=O)cc2C)c1,,,WTRVA,HeLa,EC50,0.0009 µM
Cc1cn([C@H]2C[C@H](N=[N+]=[N-])[C@@H](CO)O2)c(=O)[nH]c1=O,NL4-3,p24 / ELISA,,MT-4,EC50,0.101 µM
COc1ccc(CSc2nc(CC34CC5CC(CC(C5)C3)C4)c(C)c(=O)[nH]2)cc1,IIIB,MTT / absorbance,,MT-4,EC50,>2.12 µM
Nc1ncnc2c1ncn2[C@H]1C=C[C@@H](CO)O1,IIIB,syncytia,,MT-4,EC50,21 µM
CCc1cc(NCc2nc3c(Cl)ccc(Cl)c3o2)c(=O)[nH]c1C,IIIB,cytopathic effect / XTT,,MT-4,EC50,0.1 µM
Cc1ccc(NC(=O)CSc2nc(CC34CC5CC(CC(C5)C3)C4)c(C)c(=O)[nH]2)c([N+](=O)[O-])c1,RES056,MTT / absorbance,,MT-4,EC50,>23.08 µM